{"source": "PubChem BioAssay AID540333", "about": "(Southern Research Specialized Biocontainment Screening …, 2011)", "note": "The entries are a selection whose mix differs from that of the whole data set. Active and inactive are the calls of the source. Cut-off read from the data, not from the text of the source: active = CPE inhibition mostly above about 9.1% (no sharp cut-off); inactive = mostly below about 7.2%."}
{"experiment": "antivirals protecting cells from dengue CPE – CPE readout, HTS (AID 540333)", "settings": "Dengue virus CPE inhibition in host cells, at 20 µM; active compounds read high"}
{"smiles": "Cc1cccc(C)c1OP(C)(=O)Nc1ccc(SC(F)(F)F)cc1", "note": "(stereo not drawn)", "CPE inhibition": "inactive: 3.17%"}
{"smiles": "CC1=NCCc2c1[nH]c1ccccc21.O=[N+]([O-])c1cc([N+](=O)[O-])c(O)c([N+](=O)[O-])c1", "CPE inhibition": "inactive"}
{"smiles": "CC(C)c1ccc(OP(C)(=O)Nc2ccc(SC(F)(F)F)cc2)cc1", "note": "(stereo not drawn)", "CPE inhibition": "inactive: 5.01%"}
